Where only a bound is given, the exact number is not on record here.

For this test, the system named is HCV-poliovirus (HCV-PV) chimera in HeLa cells. Put plainly: Compound activity evaluation using an HCV-poliovirus chimera.
In turn, `N#Cc1c(-c2ccc(S(=O)(=O)NC(CF)CF)cn2)n(C2CCCCC2)c2cc(Cl)ccc12` [compound 89, 6-(6-chloro-3-cyano-1-cyclohexyl-1H-indol-2-yl)-N-(1,3-difluoropropan-2-yl)pyridine-3-sulfonamide] displayed an IC50 of less than 0.5 µM.
`N#Cc1c(-c2ccc(S(=O)(=O)NC(CF)CF)cn2)n(CC2CC2)c2cc(C3CC3)ccc12` [compound 84, 6-[3-cyano-6-cyclopropyl-1-(cyclopropylmethyl)-1H-indol-2-yl]-N-(1,3-difluoropropan-2-yl)pyridine-3-sulfonamide] had an IC50 of less than 0.5 µM.
As for `N#Cc1c(-c2ccc(S(=O)(=O)NC(CF)CF)cn2)n(C2CCC2)c2cc(OC(F)(F)F)ccc12` [compound 24, 6-[3-cyano-1-cyclobutyl-6-(trifluoromethoxy)-1H-indol-2-yl]-N-(1,3-difluoropropan-2-yl)pyridine-3-sulfonamide], the IC50 is less than 0.5 µM.
The same measure for `N#Cc1c(-c2ccc(S(=O)(=O)NC(CF)CF)cn2)n(C2CCC2)c2cc(Cl)ccc12` [compound 37, 6-(6-chloro-3-cyano-1-cyclobutyl-1H-indol-2-yl)-N-(1,3-difluoropropan-2-yl)pyridine-3-sulfonamide]: less than 0.5 µM; for `N#Cc1c(-c2ncc(S(=O)(=O)NC(CF)CF)cn2)n(C2CCCC2)c2cc(OC(F)(F)F)ccc12` [compound 178, 2-[3-cyano-1-cyclopentyl-6-(trifluoromethoxy)-1H-indol-2-yl]-N-(1,3-difluoropropan-2-yl)pyrimidine-5-sulfonamide]: less than 0.5 µM.
Then `C[C@@H](NS(=O)(=O)c1ccc(-c2c(C#N)c3ccc(OC(F)(F)F)cc3n2C2CCC2)nc1)C(F)(F)F` [compound 191, 6-[3-cyano-1-cyclobutyl-6-(trifluoromethoxy)-1H-indol-2-yl]-N-[(2R)-1,1,1-trifluoropropan-2-yl]pyridine-3-sulfonamide], with less than 0.5 µM; and `Cc1ccc2c(c1)c(C#N)c(-c1ncc(S(=O)(=O)NC(CF)CF)cn1)n2C1CCC1` [compound 122, 2-(3-cyano-1-cyclobutyl-5-methyl-1H-indol-2-yl)-N-(1,3-difluoropropan-2-yl)pyrimidine-5-sulfonamide], with less than 0.5 µM; and `N#Cc1c(-c2ccc(S(=O)(=O)NC(CF)CF)cn2)n(-c2ccccn2)c2ccc(F)cc12` [compound 96, 6-[3-cyano-5-fluoro-1-(pyridin-2-yl)-1H-indol-2-yl]-N-(1,3-difluoropropan-2-yl)pyridine-3-sulfonamide], with less than 0.5 µM.
Then `N#Cc1c(-c2ncc(S(=O)(=O)NC(CF)CF)cn2)n(C2CCC2)c2cc(C3CC3)ccc12` [compound 126, 2-(3-cyano-1-cyclobutyl-6-cyclopropyl-1H-indol-2-yl)-N-(1,3-difluoropropan-2-yl)pyrimidine-5-sulfonamide], with less than 0.5 µM; and `N#Cc1c(-c2ccc(S(=O)(=O)NC(CF)CF)cn2)n(CC2CC2)c2cc(Cl)c(F)cc12` [compound 110, 6-[6-chloro-3-cyano-1-(cyclopropylmethyl)-5-fluoro-1H-indol-2-yl]-N-(1,3-difluoropropan-2-yl)pyridine-3-sulfonamide], with less than 0.5 µM.
Regarding `N#Cc1c(-c2ccc(S(=O)(=O)NC(CF)CF)cn2)n(CC2CC2)c2cc(OC(F)(F)F)ccc12` [compound 68, 6-[3-cyano-1-(cyclopropylmethyl)-6-(trifluoromethoxy)-1H-indol-2-yl]-N-(1,3-difluoropropan-2-yl)pyridine-3-sulfonamide], the IC50 is less than 0.5 µM.
Take `CC(C)NS(=O)(=O)c1cnc(-c2c(C#N)c3ccc(C4CC4)cc3n2C2CCC2)nc1` [compound 71, 2-(3-cyano-1-cyclobutyl-6-cyclopropyl-1H-indol-2-yl)-N-(propan-2-yl)pyrimidine-5-sulfonamide]: the IC50 was less than 0.5 µM.
Then `CC(C)n1c(-c2ccc(S(=O)(=O)NC(CF)CF)cn2)c(C#N)c2cc(F)ccc21` [compound 60, 6-[3-cyano-5-fluoro-1-(propan-2-yl)-1H-indol-2-yl]-N-(1,3-difluoropropan-2-yl)pyridine-3-sulfonamide], with less than 0.5 µM; and `N#Cc1c(-c2ccc(S(=O)(=O)NC(CF)CF)cn2)n(C2CCCC2)c2cc(C3CC3)ccc12` [compound 85, 6-(3-cyano-1-cyclopentyl-6-cyclopropyl-1H-indol-2-yl)-N-(1,3-difluoropropan-2-yl)pyridine-3-sulfonamide], with less than 0.5 µM.
Then `N#Cc1c(-c2ncc(S(=O)(=O)NC(CF)CF)cn2)n(C2CCC2)c2cc(C3CC3)c(F)cc12` [compound 145, 2-(3-cyano-1-cyclobutyl-6-cyclopropyl-5-fluoro-1H-indol-2-yl)-N-(1,3-difluoropropan-2-yl)pyrimidine-5-sulfonamide], with less than 0.5 µM; and `Cc1ccc2c(C#N)c(-c3ncc(S(=O)(=O)NC(CF)CF)cn3)n(C3CCCC3)c2c1` [compound 135, 2-(3-cyano-1-cyclopentyl-6-methyl-1H-indol-2-yl)-N-(1,3-difluoropropan-2-yl)pyrimidine-5-sulfonamide], with less than 0.5 µM; and `N#Cc1c(-c2ccc(S(=O)(=O)NC(CF)CF)cn2)n(C2CCC2)c2cc(Cl)c(F)cc12` [compound 50, 6-(6-chloro-3-cyano-1-cyclobutyl-5-fluoro-1H-indol-2-yl)-N-(1,3-difluoropropan-2-yl)pyridine-3-sulfonamide], with less than 0.5 µM.

Values taken from patent US8735414B2 (priority 2009, dated 2014).
